Results deposited as PubChem BioAssay AID504761 (Drosophila RNAi Screening Center, 2011)
In all, the deposit lists about 22,000 reagents; shown is an unselected part of those that have a named target and a result. Over the whole deposit, 116 (0.52%) are marked active. 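Calls depend on retest data that are not deposited; infection was ranked per plate without normalising between plates; the unit of the infection score is not given.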 Raw values vary from plate to plate and are shown uncorrected. Entries without a mark were called inactive. Not stated in the record: the amount of reagent, the time to read-out.

Screen: 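Insect host genes that dengue virus relies on to spread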 (primary screen)
System: D.Mel-2 cells from Drosophila
Reagents: long dsRNA against Drosophila genes
Conditions: infection with dengue virus type 2; dose and infection time not stated
Measurement: 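Per well on two replicate plates, imaging gave the percent of cells positive for viral envelope protein, ranked by infection, and a nuclear count of cells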
Direction: infection score: higher = more virus-infected cells; cell count: higher = more cells in the well
Active means: 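Very low infection ranking in both replicate wells (chance probability at most 0.065), then a retest showing infection dropped 1.5-fold or more at p below 0.05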
Meaning of the calls: active = confirmed: knock-down lowers infection; inactive = not picked or not confirmed

target | amplicon | infection score, replicate 1 | infection score, replicate 2 | cell count, replicate 1 | cell count, replicate 2
CG5961 | DRSC15927 | 18.9 | 11 | 6544 | 6634
CG5961 | DRSC27152 | 8.15 | 12.7 | 6671 | 6437
Tbh | DRSC18723 | 4.95 | 13 | 5841 | 5698
Tbh | DRSC26690 | 5.33 | 3.7 | 6532 | 6345
RpL36 | DRSC18708 | 1.14 | 2.21 | 1137 | 770
Trf | DRSC03462 | 9.48 | 6.28 | 3883 | 5732
CG14565 | DRSC11726 | 3.52 | 2.67 | 6765 | 6769
CG14565 | DRSC26063 | 21 | 7.77 | 5332 | 6229
nrv3 | DRSC03097 | 28.6 | 7.16 | 5736 | 6646
Smurf | DRSC07641 | 8.72 | 12.2 | 6769 | 5910
Smurf | DRSC29832 | 13.8 | 6.79 | 5928 | 5804
CheA87a | DRSC14839 | 1.38 | 33.7 | 6594 | 5936
Adi1 | DRSC10945 | 3.25 | 3.78 | 5727 | 6078
Adi1 | DRSC21485 | 2.36 | 6.41 | 5645 | 5524
RpS9 | DRSC11273 | 11.5 | 9.62 | 4275 | 4274
CR15280 | DRSC01953 | 12.7 | 3.24 | 4710 | 6755
CR15280 | DRSC24110 | 1.62 | 2.94 | 6225 | 6164
PI31 | DRSC07306 | – | 8.27 | 422 | 4775
CG8738 | DRSC07256 | 5.68 | 13.3 | 6353 | 5883

Reprinted from the entries so far (4 entries):
target | amplicon | infection score, replicate 1 | infection score, replicate 2 | cell count, replicate 1 | cell count, replicate 2
Tbh | DRSC18723 | 4.95 | 13 | 5841 | 5698
Tbh | DRSC26690 | 5.33 | 3.7 | 6532 | 6345
RpL36 | DRSC18708 | 1.14 | 2.21 | 1137 | 770
Trf | DRSC03462 | 9.48 | 6.28 | 3883 | 5732

Further results follow.
target | amplicon | infection score, replicate 1 | infection score, replicate 2 | cell count, replicate 1 | cell count, replicate 2
SK | DRSC17387 | 0.75 | 5.96 | 6509 | 6564
SK | DRSC17887 | 10.6 | 10.4 | 6160 | 6468
SK | DRSC17888 | 10.8 | 19.9 | 4555 | 3705
SK | DRSC18353 | 4.29 | 3.28 | 5730 | 6644
SK | DRSC27622 | 7.54 | 3.46 | 6724 | 6445
Abcd1 | DRSC17157 | 6.2 | 0.96 | 5998 | 6362
CG3708 | DRSC18646 | 12 | – | 3407 | 331
JTBR | DRSC08667 | 1.44 | 3.52 | 6337 | 5970
Fkbp59 | DRSC03323 | 2.56 | 5 | 6608 | 6382
Fkbp59 | DRSC28356 | 23 | 14.2 | 5578 | 2519
Sidpn | DRSC02056 | 13.7 | 12.3 | 6271 | 5569
spab | DRSC07112 | – | – | 428 | 427
Rme-8 | DRSC07054 | 19.9 | 24.6 | 5764 | 6300
CG15283 | DRSC01980 | 13.4 | 3.85 | 5072 | 6356
Proc | DRSC22998 | 0.62 | 1.61 | 6252 | 6016
CG9451 | DRSC11074 | 3.63 | 1.57 | 6355 | 6418
CG9451 | DRSC26098 | 15.9 | 8.25 | 5455 | 5781
Srpk79D | DRSC11668 | 4.5 | 10.5 | 6911 | 6159
Srpk79D | DRSC11856 | 2.65 | 10.5 | 6346 | 6688
Srpk79D | DRSC29962 | – | 11.4 | – | 3157
CG14422 | DRSC17919 | 1.49 | 3.08 | 6304 | 5947
CG14422 | DRSC25359 | 15.7 | 9.88 | 4148 | 3412
mRpL37 | DRSC16062 | 5.33 | 28.1 | 4837 | 4282
Gr63a | DRSC08438 | 1.76 | 2.16 | 6705 | 5598
Mpp6 | DRSC03169 | 23.4 | – | 4203 | 472
Mpp6 | DRSC29734 | 15.7 | 7.01 | 6383 | 5995
Nos | DRSC03381 | 15.4 | 8.52 | 5928 | 5954
Mmp1 | DRSC04493 | 2.26 | 4.59 | 6818 | 6426
CG13471 | DRSC10015 | 1.37 | 1.29 | 5909 | 5946
GstD2 | DRSC16684 | 2.28 | 13.2 | 6845 | 4245
GstD2 | DRSC27903 | 28.7 | 30.2 | 5520 | 5545
Nab2 | DRSC14158 | 3.61 | 2.15 | 6614 | 6475
Nab2 | DRSC27135 | 6.48 | 4.15 | 6514 | 6386
CG9782 | DRSC19145 | 2.83 | 2.29 | 6014 | 5460
CG9782 | DRSC20209 | 4.55 | 22.7 | 6480 | 6186
CG9782 | DRSC25115 | 6.42 | 10.3 | 6857 | 6548
Nepl3 | DRSC02681 | 11.8 | 29.1 | 5573 | 4937
disco-r | DRSC20173 | 10.5 | 1.41 | 6217 | 6456
disco-r | DRSC20174 | 8.43 | 1.62 | 5777 | 6792
